Measured values from several laboratories, pooled; numbers as filed in NIAID ChemDB.

Shared fields: growth or infection tests; species: HIV-1; endpoint: fold resistance

Conditions beyond the fields shown may differ between rows.

structure | strain or isolate | changes | cells | method | result
Nc1ccn([C@H]2CO[C@@H](CO)S2)c(=O)n1 | NL4-3 | RT-M184V | PBMC | p24 | 1.3
Nc1ccn([C@@H]2C=C[C@H](CO)O2)c(=O)n1 | - | RT-M184V | PBMC | RT activity | 17
Cc1cc(S(N)(=O)=O)ccc1NC(=O)COc1ccc(Cl)cc1C(=O)c1cc(F)cc(C#N)c1 | HXB2 | RT-K103N P225H | HeLa + HELA CD4+ | β-galactosidase | ~1
CCc1c(Sc2ccccc2)n(COCc2ccccc2)c(=O)[nH]c1=O | IIIB | RT-Y188H | CEM | syncytia | 6500
CC(C)OC(=O)c1cc(NC(=S)OC(C)C)ccc1Cl | - | RT-V106A | CEM | syncytia | 73.6
CC(C)=CCOc1cc(NC(=S)c2ccsc2C)ccc1Cl | NL4-3 | RT-V106I | CEM + CEM-SS | p24 | 13
Cc1cc(C#N)cc(C)c1Oc1nc(Nc2ccc(C#N)cc2)ncc1SCC(=O)NCC1CCCO1 | - | Y188L | MT-4 | MTT | 5.5
C=C(C)[C@@H]1CC[C@]2(C(=O)NCCCCCCCC(=O)N[C@@H](CC(C)C)[C@@H](O)CC(=O)O)CC[C@]3(C)[C@H](CC[C@@H]4[C@@]5(C)CC[C@H](O)C(C)(C)[C@@H]5CC[C@]43C)[C@@H]12 | LAI-R(GP41-R22A I84S) | R22A I84S | HeLa P4 + HeLa | syncytia | >10
Cc1cc(C#N)cc(C)c1Oc1nc(Nc2ccc(C#N)cc2)ncc1SCC(=O)NCc1ccc(O)cc1 | - | Y181C | MT-4 | MTT | 4.9
CSC(=Nc1ccc(Cl)c(C(=O)OC(C)C)c1)OC(C)C | - | RT-Y181C | CEM | syncytia | >1
Cc1cc(C#N)cc(C(=O)c2cc(Cl)ccc2OCC(=O)Nc2cnc(S(N)(=O)=O)cc2C)c1 | HXB2 | RT-K103N V108I | HeLa + HELA CD4+ | β-galactosidase | ~1
Cc1ccnc(SC(F)(F)c2nc3ccccc3o2)n1 | ddI-resistant (RT L74V) | RT-L74V | - | - | 2.37
O=C1Nc2ccc(Cl)cc2C(OCC2CC2)(C(F)(F)F)O1 | - | RT-K103N | - | - | 35.6
CCCCCCCCCCCCCCCCOCCCOP(=O)(O)CO[C@H](CO)Cn1cnc2c(N)ncnc21 | - | RT-K65R | MT-2 | p24 | 22.8
CC(C)OC(=S)Nc1ccc(Cl)c(C(=O)SC(C)C)c1 | - | RT-E138K | CEM | syncytia | 20.1
COC(=O)[C@H](C)NP(=O)(OC[C@@H]1C=C[C@H](n2cc(C)c(=O)[nH]c2=O)O1)Oc1ccc(Cl)cc1 | A17 | RT-Y181C | PBMC | p24 | 79
CCOC1(C(F)(F)F)OC(=O)Nc2ccc(Cl)cc21 | - | RT-K103N | - | - | 11
C#CCOC(=O)c1cc(NC(=S)OC(C)C)ccc1Cl | - | RT-E138K | CEM | syncytia | 20.7
Cc1cc(C#N)cc(C(=O)c2cc(Cl)ccc2OCC(=O)Nc2ccc(OCCCN3CC=CC3)cc2C)c1 | HXB2 | RT-K103N V108I | HeLa + HELA CD4+ | β-galactosidase | ~1
CCCCCOC(=S)Nc1ccc(Cl)c(C(=O)OC(C)C)c1 | - | RT-E138K | CEM | syncytia | 10.9
CCc1ccc(-n2c(C)nnc2SCC(=O)Nc2ccc(C)cc2Cl)cc1 | NL4-3 | RT-K103N Y181C | HeLa + HeLa-JC53 | luciferase | 300
O=C1Nc2ccc(F)c(F)c2C(C#Cc2cccs2)(C(F)(F)F)O1 | - | RT-K103N | - | - | 66.6
Cc1ccc(C2CC2)c(-c2cc(F)c3c(c2C)CCCO3)c1[C@H](OC1CC1)C(=O)O | NL4-3 | INSTI-resistant (IN-Q148H) | MT-4 | luminescence | 1
Cc1ccc2c(C)ccc(-n3c(SCC(=O)Nc4ccc(S(N)(=O)=O)cc4Cl)nnc3C(F)(F)F)c2c1 | NL4-3 | RT-Y188L | HeLa + HeLa-JC53 | luciferase | 5.8
Cc1cc(S(N)(=O)=O)ccc1NC(=O)COc1ccc(Cl)cc1C(=O)c1cc(C#N)cc(C#N)c1 | HXB2 | RT-V106A | HeLa + HELA CD4+ | β-galactosidase | ~1
Cc1cc(C)c2ccccc2c1-n1c(C)nnc1SCC(=O)Nc1ccccc1Br | NL4-3 | RT-K103N Y181C | HeLa + HeLa-JC53 | luciferase | 70
CCCN(C(=O)C(=O)N(C)C)C12CCC(Cn3c1nc(C(=O)NCc1ccc(F)cc1)c(O)c3=O)OC2 | - | G140S/Q148H | HeLa | single cycle | >209
CC(C)(C)C1=NC(c2ccccc2)(C(F)(F)F)NC(=O)N1 | NL4-3 | L100I | TZM-bl | luciferase | 41
FC(F)(Sc1ncccn1)c1nc2ccccc2o1 | HEPT/236 | RT-P236L | - | - | 2.57
COC(=O)[C@H](C)NP(=O)(OC[C@@H]1C=C[C@H](n2cc(C)c(=O)[nH]c2=O)O1)Oc1ccccc1Br | RTMDR | RT M41L L74V T215Y V106N | PBMC | p24 | 261.5
Cc1ccc(C2CC2)c(-c2ccc3c(c2C)CCCO3)c1[C@H](OC(C)(C)C)C(=O)O | NL4-3 | INSTI-resistant (IN-G140S Q148H) | MT-4 | luminescence | 1
Cc1cc2[nH]cnc2cc1NC(=O)COc1ccc(Cl)cc1C(=O)c1cc(F)cc(C(F)(F)F)c1 | HXB2 | RT-G190E | HeLa + HELA CD4+ | β-galactosidase | ~1
C=CCNC(=O)CSc1cnc(Nc2ccc(C#N)cc2)nc1Oc1c(C)cc(C#N)cc1C | - | L100I | MT-4 | MTT | 6.9
CC(C)OC(=S)Nc1ccc(Cl)c(C(=O)OC2CC2)c1 | - | RT-L100I | CEM | syncytia | 22.6
CCCCCCCCCCCCCCCCCCOCCOP(=O)(O)CO[C@H](CO)Cn1cnc2c(N)ncnc21 | - | RT-M184V | MT-2 | p24 | 0.0925
CCCOC(=S)Nc1ccc(Cl)c(C(=O)OC(C)C)c1 | - | RT-E138K | CEM | syncytia | 13
CC(C)=CCOc1cc(NC(=S)c2ccoc2C)ccc1Cl | NL4-3 (RT V108I) | RT-V108I | CEM + CEM-SS | cytopathic effect / XTT | 1.67
CCOCn1c(Sc2ccccc2)c(CC)c(=O)[nH]c1=O | IIIB | RT-Y188H | CEM | syncytia | >5000
CCCSC(=Nc1ccc(Cl)c(C(=O)OC(C)C)c1)OC(C)C | - | RT-Y181C | CEM | syncytia | >15.3
CCN1c2ncc(CCOc3cccc4c3ccc[n+]4[O-])cc2C(=O)Nc2c(C)cc(Cl)nc21 | - | RT-K103N Y181C | C8166 | p24 | 59.4
Cc1cc2cn[nH]c2cc1NC(=O)COc1ccc(Cl)cc1C(=O)c1cccc(C#N)c1 | HXB2 | RT-V108I | HeLa + HELA CD4+ | β-galactosidase | ~100
CC(C)c1c(Sc2ccccc2)n(COCCO)c(=S)[nH]c1=O | IIIB | RT-Y188H | CEM | syncytia | >50
Cc1ccc(NC(=O)CSc2nnc(C)n2-c2c(C)cc(C)c3ccccc23)c(Cl)c1 | NL4-3 | RT-Y188L | HeLa + HeLa-JC53 | luciferase | 90
CO/N=C/c1cc(NC(=S)OC(C)C)ccc1Cl | - | RT-E138K | CEM | syncytia | 11.7
CCc1c(Sc2cc(C)cc(C)c2)n(COCc2ccccc2)c(=S)[nH]c1=O | IIIB (TIBO 82150) (RT-L100I) | RT-L100I | CEM | syncytia | 1.33
CC(C)OC(=O)c1cc(NC(=S)SC(C)C)ccc1Cl | - | RT-E138K | CEM | syncytia | >1.54
Cc1cc(C#N)cc(C)c1Oc1nc(Nc2ccc(C#N)cc2)ncc1SCC(=O)NCCCN1CCOCC1 | - | RES056 | MT-4 | MTT | 130.4
Cc1cc(S(N)(=O)=O)ccc1NC(=O)COc1ccccc1C(=O)c1cc(Cl)cc(C#N)c1 | - | RT-K103N P225H | HeLa MAGI + HeLa | β-galactosidase | 10
O=C1Nc2ccc(Cl)cc2C(C#Cc2cncs2)(C(F)(F)F)O1 | - | RT-K103N | - | - | 128
O=C(O[C@@H]1[C@H](OC(=O)c2ccccc2)[C@@H](CO)O[C@H]1n1cnc2c(N(C(=O)c3ccccc3)C(=O)c3ccccc3)ncnc21)c1ccccc1 | NL4-3 | M184V-M41L-L210W-T215Y | HeLaP4 | β-galactosidase | 0.58
Cc1ccc2c(C)ccc(-n3c(C)nnc3SCC(=O)Nc3ccccc3Br)c2c1 | NL4-3 | RT-Y188L | HeLa + HeLa-JC53 | luciferase | 400
CC(=O)COc1cc(NC(=S)OC(C)C)ccc1Cl | - | RT-L100I | CEM | syncytia | 8.99
CCCOC1(C(F)(F)F)OC(=O)Nc2ccc(Cl)cc21 | - | RT-K103N | - | - | 128
CC(C)=CCOc1cc(NC(=S)c2ccsc2C)ccc1Cl | NL4-3 (RT Y188C) | RT-Y188C | CEM + CEM-SS | cytopathic effect / XTT | 1
CC(C)OC(=O)c1cc(NC(=S)OCC2CC2)ccc1Cl | - | RT-E138K | CEM | syncytia | 28.6
O=C1Nc2ccc(F)cc2C(C#Cc2ccco2)(C(F)(F)F)O1 | - | RT-K103N | - | - | 126
CCOCn1c(Cc2ccccc2)c(C(C)C)c(=O)[nH]c1=O | IIIB (TIBO 82150) (RT-L100I) | RT-L100I | CEM | syncytia | 10
Cc1cc2c(C)ccc(-n3c(C)nnc3SCC(=O)Nc3ccccc3Br)c2cc1C | NL4-3 | RT-Y188L | HeLa + HeLa-JC53 | luciferase | 110
Cc1cc(S(N)(=O)=O)ccc1NC(=O)COc1ccc(Cl)cc1C(=O)c1cccc(C#N)c1 | HXB2 | RT-P225H | HeLa + HELA CD4+ | β-galactosidase | ~1
CCc1ccc(-n2c(C)nnc2SCC(=O)Nc2ccc(C)cc2Cl)c2ccccc12 | NL4-3 | RT-Y188L | HeLa + HeLa-JC53 | luciferase | 110
C=C(C)COc1cc(NC(=S)OC(C)C)ccc1Cl | - | RT-L100I | CEM | syncytia | >11.1

A second listing of 8 rows from above:

CCCCCCCCCCCCCCCCCCOCCOP(=O)(O)CO[C@H](CO)Cn1cnc2c(N)ncnc21 ; changes: RT-M184V ; cells: MT-2 ; method: p24 ; result: 0.0925
CC(C)=CCOc1cc(NC(=S)c2ccoc2C)ccc1Cl ; strain or isolate: NL4-3 (RT V108I) ; changes: RT-V108I ; cells: CEM + CEM-SS ; method: cytopathic effect / XTT ; result: 1.67
Cc1cc(S(N)(=O)=O)ccc1NC(=O)COc1ccccc1C(=O)c1cc(Cl)cc(C#N)c1 ; changes: RT-K103N P225H ; cells: HeLa MAGI + HeLa ; method: β-galactosidase ; result: 10
Cc1cc(C#N)cc(C)c1Oc1nc(Nc2ccc(C#N)cc2)ncc1SCC(=O)NCCCN1CCOCC1 ; changes: RES056 ; cells: MT-4 ; method: MTT ; result: 130.4
CC(C)OC(=O)c1cc(NC(=S)OCC2CC2)ccc1Cl ; changes: RT-E138K ; cells: CEM ; method: syncytia ; result: 28.6
CC(C)OC(=S)Nc1ccc(Cl)c(C(=O)OC2CC2)c1 ; changes: RT-L100I ; cells: CEM ; method: syncytia ; result: 22.6
CC(=O)COc1cc(NC(=S)OC(C)C)ccc1Cl ; changes: RT-L100I ; cells: CEM ; method: syncytia ; result: 8.99
CCc1ccc(-n2c(C)nnc2SCC(=O)Nc2ccc(C)cc2Cl)c2ccccc12 ; strain or isolate: NL4-3 ; changes: RT-Y188L ; cells: HeLa + HeLa-JC53 ; method: luciferase ; result: 110

Fold resistance: result on the changed form divided by that on wild type. An empty or dashed field is not shown.